Measured values from several laboratories, pooled; numbers as filed in NIAID ChemDB.

All rows: enzyme or target tests; organism: HIV-1; target: Integrase; read by: 3′ processing; read-out: IC50

Blank or dashed fields: not listed here.

compound | mutations | result
Cc1cc(Cl)cc2c1S(=O)(=O)N=C(C(=O)c1ccc3ccccc3c1)S2 | INTG-C65S | 20 µM
O=C(Nc1ccc2c(O)c(N=Nc3ccc(Br)cc3Br)c(S(=O)(=O)O)cc2c1)Nc1ccc2c(O)c(N=Nc3ccc(Br)cc3Br)c(S(=O)(=O)O)cc2c1 | - | 4 µM
COc1ccc(/C=C2\C(=O)N(c3ccccc3)NC2C(F)(F)F)cc1OCc1ccc(F)cc1 | - | >100 µM
Cc1cc(S(=O)(=O)/[NH+]=C2/N=C3C=C(c4ccccc4)SC3C(=O)N2Cc2ccccc2)c(S)cc1Cl | - | 9 µM
CN1C/C(=C\c2ccc(O)c(O)c2)C(=O)/C(=C/c2ccc(O)c(O)c2)C1 | - | 0.5 µM
COC(=O)C(CNC(=O)/C=C/c1ccc(O)c(O)c1)NC(=O)/C=C/c1ccc(O)c(O)c1 | - | 1.95 µM
O=C(C1=NS(=O)(=O)c2ccc(Cl)cc2S1)c1ccc(Cl)c(Cl)c1 | - | 19 µM
CCOC(=O)c1ccc(N=Nc2c(S(=O)(=O)O)cc3cc(NC(=O)Nc4ccc5c(O)c(N=Nc6ccc(C(=O)OCC)cc6)c(S(=O)(=O)O)cc5c4)ccc3c2O)cc1 | - | 2.7 µM
O=S(=O)(Cc1ccc(Br)cc1)c1nc2ccccc2s1 | - | >1000 µM
CCN1C/C(=C\c2ccc([N+](=O)[O-])c(O)c2)C(=O)/C(=C/c2ccc([N+](=O)[O-])c(O)c2)C1 | - | >100 µM
CCOC(=O)C(Cc1ccccc1)c1ccc(N2C(=O)C(c3ccc(C(=O)O)o3)=C(c3ccc(C(=O)O)o3)C2=O)cc1 | - | 15 µM
Cc1cc(=O)n(-c2ccccc2)n1C(=O)c1ccco1 | - | 450 µM
O=C(O)C(=O)/C=C(\O)c1cn(-c2ccccc2)c(=O)n(-c2ccc(F)cc2)c1=O | - | 5.7 µM
O=[N+]([O-])c1ccc(CS(=O)(=O)c2nc3ccccc3s2)cc1 | - | >1000 µM
O=C(C1=NS(=O)(=O)c2ccc(Cl)cc2S1)c1ccc(Cl)cc1 | - | 100 µM
COc1ccc(/C=C/C(=O)OCCc2ccc(N=C=S)cc2)cc1OC | C56S | >100 µM
C=c1/c(=C\c2ccc(OC)c(OCc3ccc(F)cc3)c2)c(CCOC(C)=O)nn1-c1ccccc1 | - | >100 µM
Cc1cc2c(cc1Cl)SC(C(=O)c1ccc(Cl)c(Cl)c1)=NS2(=O)=O | INTG-C65S | 20 µM
Cc1cc(S(=O)(=O)/[NH+]=C2/N=C3C=C(c4ccsc4)SC3C(=O)N2Cc2ccco2)c(S)cc1Cl | - | 8 µM
CC(C)(C)OC(=O)N1CCC(NC(=O)C(=O)/C=C(\O)c2ccc(F)cc2)CC1 | - | >100 µM
O=S(=O)(Nc1ccccc1C(F)(F)F)c1cccc2cnccc12 | - | 1000 µM
Cc1cc2c(cc1Cl)SC(C(=O)c1ccc([N+](=O)[O-])cc1)=NS2(=O)=O | INTG-C65S | 11 µM
O=C(O)/C(O)=C/C(=O)n1c(=O)n(Cc2ccccc2)c(=O)n1Cc1ccccc1 | - | 17 µM
O=C(NCC(NC(=O)c1ccc(O)c(O)c1)C(=O)O)c1ccc(O)c(O)c1 | - | >10 µM
CCOC(=O)C1C/C(=C\c2cc(O)c(O)c(O)c2)C(=O)/C(=C/c2cc(O)c(O)c(O)c2)C1 | - | 0.2 µM
O=C(/C=C/c1ccc(O)c(O)c1)OCCc1ccccc1 | C56S | 35 µM
O=C(O)CC(C(=O)O)c1ccc(N=Nc2c(S(=O)(=O)O)cc3cc(NC(=O)Nc4ccc5c(O)c(N=Nc6ccc(C(CC(=O)O)C(=O)O)cc6)c(S(=O)(=O)O)cc5c4)ccc3c2O)cc1 | - | 0.3 µM
CCOC(=O)CC1C/C(=C\c2cc(O)c(O)c(O)c2)C(=O)/C(=C/c2cc(O)c(O)c(O)c2)C1 | - | 2.6 µM
O=C(/C=C/c1ccc(O)c(O)c1)Oc1ccc2cccc(N=C=S)c2c1 | - | 1 µM
O=C(/C=C/c1ccc(O)c(O)c1)NCC(NC(=O)/C=C/c1ccc(O)c(O)c1)C(=O)O | - | 0.81 µM
O=C(/C=C/c1ccccc1)OCCc1ccc(N=C=S)cc1 | - | >100 µM
COC(=O)C(=O)/C=C(\O)c1cccc(N(Cc2ccccc2)Cc2ccccc2)c1 | - | >100 µM
O=C(O)/C=C/c1ccc2c(c1)c(=O)c(/C(O)=C/C(=O)C(=O)O)cn2Cc1ccc(F)cc1 | - | 8 µM
O=C(O)C(=O)/C=C(\O)c1cn(-c2ccccc2)c(=O)[nH]c1=O | - | 10 µM
O=C1/C(=C/c2ccc(Cl)c(Cl)c2)CSC/C1=C\c1ccc(Cl)c(Cl)c1 | - | >100 µM
Cc1cc(S(=O)(=O)/[NH+]=C2/N=C3C=C(c4ccc(Cl)cc4)SC3C(=O)N2Cc2ccccc2)c(S)cc1Cl | - | 6 µM
COC(=O)C(CCCCNC(=O)c1ccc(O)c(O)c1)NC(=O)c1ccc(O)c(O)c1 | - | >10 µM
O=C(O)CC(C(=O)O)c1ccc(N=Nc2c(S(=O)(=O)O)cc3cc(NC(=O)C(=O)Nc4ccc5c(O)c(N=Nc6ccc(C(CC(=O)O)C(=O)O)cc6)c(S(=O)(=O)O)cc5c4)ccc3c2O)cc1 | - | 0.8 µM
O=C(CCCC[C@@H]1SC[C@@H]2NC(=O)N[C@@H]21)NCc1cn(Cc2ccc(C(=O)c3cccc(/C(O)=C/C(=O)C(=O)O)c3)cc2)nn1 | - | 136.7 µM
O=C1C(=O)N(Cc2ccc(Br)cc2)c2ccccc21 | - | 900 µM
O=C1C(=Cc2cc(O)c(O)c(O)c2)C(=O)c2ccccc21 | - | 0.2 µM
O=CCCc1ccc(C2=C(c3ccc(CCC=O)o3)C(=O)N(Cc3ccccc3)C2=O)o1 | - | 29 µM
O=C(Nc1ccc2c(O)cc(S(=O)(=O)O)cc2c1)Nc1ccc2c(O)cc(S(=O)(=O)O)cc2c1 | - | 4 µM
O=C(O)CC1C/C(=C\c2ccc(O)c(O)c2)C(=O)/C(=C/c2ccc(O)c(O)c2)C1 | - | 0.7 µM
[N-]=[N+]=NCc1ccc(C(=O)c2cccc(/C(O)=C/C(=O)C(=O)O)c2)cc1 | - | >333 µM
O=C(NCCCC[C@H](NC(=O)c1ccc(O)c(O)c1)C(=O)O)c1ccc(O)c(O)c1 | - | >10 µM
COc1ccc(C(=O)C2=NS(=O)(=O)c3cc(C)c(Cl)cc3S2)cc1 | INTG-C65S | >100 µM
O=C(/C=C/c1cc(O)c(O)c(O)c1)NCCCC(NC(=O)/C=C/c1cc(O)c(O)c(O)c1)C(=O)O | - | 0.38 µM
COc1ccc(/C=C2\C(=O)N(c3cccc(F)c3)NC2C(F)(F)F)cc1OCc1ccc(F)cc1 | - | >100 µM
O=C(O)C(=O)/C=C(\O)c1cn(-c2ccc(F)cc2)c(=O)n(-c2ccc(F)cc2)c1=O | - | 3.9 µM
COC(=O)C(CCNC(=O)c1ccc(O)c(O)c1)NC(=O)c1ccc(O)c(O)c1 | - | >10 µM
Cc1cc(=O)n(-c2ccccc2)n1C(=O)/C=C/c1ccco1 | - | 520 µM

ICn: concentration for n% inhibition. Conditions beyond the fields shown may differ between rows.